Assay results reported in patent publication US12137687B2, “Method for inducing acquired resistance in a plant” (HEINRICH HEINE UNIVERSITAET DUESSELDORF, priority 2017, dated 2024).

Assays:
[1] = format: in vivo, Solanum lycopersicum; conditions: tomato cultivar M82; Phytophthora infestans strain D12.2; 48 h
[2] = Pip/NHP levels in Arabidopsis leaves after Psm inoculation (GC-MS); format: in vivo, Arabidopsis thaliana; conditions: for endogenous level in Psm-inoculated (1°) leaves: Col-0; for endogenous level in distant (2°) leaves: Col-0, 1° leaves Psm-inoculated
[3] = Pip/NHP accumulation in tobacco after Pseudomonas syringae pv. tabaci inoculation; conditions: tobacco cv Xanthi, 72 h

SMILES	pathogen-induced accumulation in inoculated plants [1] [μg/g FW]	endogenous level in Psm-inoculated (1°) leaves ([2]; 48 hpi)	peak value of accumulation in inoculated plants [3]	endogenous level in distant (2°) leaves ([2]; 24 hpi) [μg g^−1 FW]	endogenous level in distant (2°) leaves ([2]; 72 hpi) [μg g^−1 FW]	endogenous level in Psm-inoculated (1°) leaves ([2]; 24 hpi (maximum))	endogenous level in Psm-inoculated leaves ([2]; both eds1 and pad4 mutants, 48 hpi)	endogenous level as share of the wild-type level ([2]; eds1 mutant, 24 hpi) [%]	endogenous level in Psm-inoculated leaves ([2]; eds1 mutant, 24 hpi) [μg g^−1 FW]	endogenous level in Psm-inoculated leaves ([2]; npr1 mutant, 24 hpi) [μg g^−1 FW]	endogenous level as share of the wild-type level ([2]; pad4 mutant, 24 hpi) [%]	endogenous level in Psm-inoculated leaves ([2]; pad4 mutant, 24 hpi) [μg g^−1 FW]	endogenous level in Psm-inoculated leaves ([2]; sard4-5 mutant, 24 hpi) [μg g^−1 FW]	endogenous level in Psm-inoculated leaves ([2]; sard4-5 mutant, 48 hpi) [μg g^−1 FW]	endogenous level in Psm-inoculated leaves ([2]; sid2 mutant, 24 hpi) [μg g^−1 FW]	endogenous level in Psm-inoculated leaves ([2]; sid2 mutant, 48 hpi) [μg g^−1 FW]
O=C(O)[C@@H]1CCCCN1 [Pip, (S)-piperidine-2-carboxylic acid, reference compound]	> 20	more than 100 μg g^−1 FW														
O=C(O)C1CCCCN1O (stereo not drawn) [NHP, 1-hydroxypiperidine-2-carboxylic acid]	> 4	16 μg g^−1 FW	approximately 10 μg/g FW	~0.15	0.5	about 30 μg g^−1 FW	about 0.15 μg g^−1 FW	1.3	0.4	56	2.4	0.7	0.3	1.9	119	260
